Assay results published in patent US20080118529.

Test system: H5-FLAG-His, haemagglutinin-5 of virus strain A/Vietnam/1203/2004 expressed in HEK293E cells (lot 1 210406CS)

Tissue-type plasminogen activator (tPA, Actilyse, Boehringer-Ingelheim)
tPA/plasminogen activation assay: In H5 lot 1 210406CS some tPA activating moieties are detected
